{"source": "PubChem BioAssay AID504761 (Drosophila RNAi Screening Center, 2011)", "aim": "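Fly genes whose silencing reduces dengue virus type 2 infection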 (primary screen)", "cell system": "D.Mel-2 cells from Drosophila", "reagents": "long dsRNA against Drosophila genes", "challenge": "infection with dengue virus type 2; dose and infection time not stated", "measured": "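Per well on two replicate plates, imaging gave the percent of cells positive for viral envelope protein, ranked by infection, and a nuclear count of cells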", "scale": "infection score: higher = more virus-infected cells", "rule for the call": "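Low infection ranks in the two replicates (chance level up to 0.065) followed by a retest with a 1.5-fold or larger significant decrease, p below 0.05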", "meaning of the calls": "active = confirmed: knock-down lowers infection; inactive = not picked or not confirmed", "note": "The screen tested about 22,000 reagents; shown is an unselected part of those that have a named target and a result. Over the whole deposit, 116 (0.52%) were called active. 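Calls depend on retest data that are not deposited; infection was ranked per plate without normalising between plates; the unit of the infection score is not given.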 Reagents against one gene are numbered here. Not all columns of the deposit are shown. The record does not give: the amount of reagent, the time to read-out."}
{"target": "Alp10 (GeneID 38632)", "reagent": 1, "infection score, replicate 1": 0.37, "outcome": "inactive"}
{"target": "Alp10 (GeneID 38632)", "reagent": 2, "infection score, replicate 1": 1.1, "outcome": "inactive"}
{"target": "Pcmt (GeneID 40668)", "reagent": 1, "infection score, replicate 1": 16.6, "outcome": "inactive"}
{"target": "CG15919 (GeneID 50216)", "reagent": 1, "infection score, replicate 1": 8.73, "outcome": "inactive"}

2 entries from above, reformatted:
| target | reagent | infection score, replicate 1 | outcome |
| --- | --- | --- | --- |
| Alp10 (GeneID 38632) | 2 | 1.1 | inactive |
| Pcmt (GeneID 40668) | 1 | 16.6 | inactive |

Continued:
{"target": "Ugt37A2 (GeneID 41573)", "reagent": 1, "infection score, replicate 1": 1.96, "outcome": "inactive"}
{"target": "Ugt37A2 (GeneID 41573)", "reagent": 2, "infection score, replicate 1": 4.68, "outcome": "inactive"}
{"target": "cv-c (GeneID 41749)", "reagent": 1, "infection score, replicate 1": 1.13, "outcome": "inactive"}
{"target": "cv-c (GeneID 41749)", "reagent": 2, "infection score, replicate 1": 2.36, "outcome": "inactive"}
{"target": "cv-c (GeneID 41749)", "reagent": 3, "infection score, replicate 1": 4.33, "outcome": "inactive"}
{"target": "cv-c (GeneID 41749)", "reagent": 4, "infection score, replicate 1": 2.52, "outcome": "inactive"}
{"target": "cv-c (GeneID 41749)", "reagent": 5, "infection score, replicate 1": 0.62, "outcome": "inactive"}
{"target": "cv-c (GeneID 41749)", "reagent": 6, "infection score, replicate 1": 3.38, "outcome": "inactive"}
{"target": "cv-c (GeneID 41749)", "reagent": 7, "infection score, replicate 1": 7.96, "outcome": "inactive"}
{"target": "cv-c (GeneID 41749)", "reagent": 8, "infection score, replicate 1": 7, "outcome": "inactive"}
